Measurements reported in PubChem BioAssay AID1224833 (University of Georgia, 2016).
The whole screen tested about 12,000 reagents; this is a random part of them. About 5,600 of all reagents (46%) were called active. 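Active calls cover z-scores past 1 in both directions, so they include lowered as well as raised rotavirus replication.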

- Aim: 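Human genes whose knock-down alters rotavirus replication in monkey cells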 (primary screen)
- System: monkey MA104 kidney cells
- Reagents: siRNA pool against human genes, 50 nM
- Timing: 48 h knock-down before infection; read 24 h after infection
- Conditions: infection with rotavirus strain RV3 two days after transfection; infectious dose for this stage not given
- Measured: 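Rotavirus antigen per well by fluorescent immunoassay, normalised to non-targeting control wells on each plate and given as a standard z-score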
- Scale: z-score vs non-targeting control: higher = more rotavirus replication than with non-targeting control
- Call rule: In these data the active calls have z-score vs non-targeting control at about -1 or lower, or at about 1 or higher
- Meaning of the calls: active = z-score beyond 1 either way; inactive = z-score within 1 of zero

gene,PubChem SID,z-score vs non-targeting control,Call
EIF3I,SID329576227,-0.919,inactive
C12orf60,SID329582875,-0.915,inactive
SEPHS2,SID329577732,-1.18,active
LAMP1,SID329574275,-1.09,active
AMZ2,SID329579020,1.19,active
SH2D4B,SID329584299,0.0708,inactive
ARHGEF9,SID329577884,-0.363,inactive
ZNF358,SID329582792,-0.326,inactive
MRO,SID329581466,1.18,active
ZNF234,SID329577354,0.0925,inactive
MST1,SID329574492,0.657,inactive
CEACAM19,SID329580116,-0.172,inactive
PARP1,SID329572707,-0.722,inactive
CALY,SID329578808,0.185,inactive
KAZALD1,SID329581335,-1.88,active
CCDC62,SID329581689,0.891,inactive
BCO1,SID329579225,1.24,active
SLC15A1,SID329575371,0.623,inactive
MTIF2,SID329574504,-1.17,active
XKR7,SID329584125,-1.34,active
HRCT1,SID329584698,-0.133,inactive
NVL,SID329574685,-0.026,inactive
FOXR1,SID329583816,-0.368,inactive
ANKRD39,SID329578978,1.18,active
BRINP3,SID329584051,-0.448,inactive
C3orf70,SID329583931,-1.79,active
ATRNL1,SID329578281,-0.506,inactive
AMT,SID329572760,-2.14,active
MOB3C,SID329582986,2.42,active
SUPT5H,SID329575527,0.901,inactive
APOBR,SID329579930,0.0953,inactive
ARFGAP3,SID329578369,-2,active
AFAP1L2,SID329581674,-0.816,inactive
ZNF32,SID329575867,-2.16,active
MRPL1,SID329580738,0.869,inactive
PLVAP,SID329581399,-0.612,inactive
DNAJB9,SID329574415,1.2,active

Part of the list above, set out differently:
gene	PubChem SID	z-score vs non-targeting control	Call
ZNF234	SID329577354	0.0925	inactive
MST1	SID329574492	0.657	inactive
CEACAM19	SID329580116	-0.172	inactive
PARP1	SID329572707	-0.722	inactive
CALY	SID329578808	0.185	inactive
KAZALD1	SID329581335	-1.88	active
CCDC62	SID329581689	0.891	inactive
BCO1	SID329579225	1.24	active
SLC15A1	SID329575371	0.623	inactive
MTIF2	SID329574504	-1.17	active
XKR7	SID329584125	-1.34	active
HRCT1	SID329584698	-0.133	inactive
NVL	SID329574685	-0.026	inactive
FOXR1	SID329583816	-0.368	inactive
ANKRD39	SID329578978	1.18	active
BRINP3	SID329584051	-0.448	inactive
C3orf70	SID329583931	-1.79	active
ATRNL1	SID329578281	-0.506	inactive

The listing continues.
gene,PubChem SID,z-score vs non-targeting control,Call
IFI6,SID329573702,-0.385,inactive
AARS1,SID329572653,-1.45,active
ANKRD24,SID329583331,-1.11,active
CSKMT,SID329584741,-2.46,active
ZNF517,SID329584072,-0.327,inactive
CERS3,SID329583473,-1.65,active
SLC52A2,SID329580901,1.77,active
CTTNBP2,SID329581496,0.334,inactive
ZNF543,SID329582516,0.205,inactive
RAB35,SID329577489,-1.05,active
OR10S1,SID329583527,0.24,inactive
CCDC172,SID329584222,0.232,inactive
UIMC1,SID329579187,-1.6,active
OR6C76,SID329584415,-0.807,inactive
IMPDH1,SID329574163,0.896,inactive
CLEC14A,SID329583194,0.54,inactive
OR6N1,SID329582607,-2.14,active
PHETA1,SID329582877,1.36,active
NCSTN,SID329577968,0.888,inactive
NKG7,SID329574635,-0.108,inactive
RHBDD3,SID329578172,1.03,active
SUN3,SID329583756,0.693,inactive
TRAPPC8,SID329577698,0.22,inactive
LAMP2,SID329574277,-1.52,active
SYDE1,SID329581840,-0.426,inactive
FGF16,SID329576306,0.821,inactive
SNAPIN,SID329578060,-0.293,inactive
CYREN,SID329580792,-1.92,active
ZNF624,SID329580284,-0.44,inactive
FBXW10B,SID329584219,-1.38,active
PSMD2,SID329574992,0.422,inactive
ZNF277,SID329577586,-0.851,inactive
EPM2AIP1,SID329576835,-1.78,active
AWAT2,SID329583165,-1.62,active
LILRB2,SID329577081,1.33,active
LRRC59,SID329579715,-0.635,inactive
NFYB,SID329574624,1.29,active
ZNF462,SID329580421,2.08,active
FOXJ1,SID329573660,3.29,active
POU4F2,SID329574914,-1.23,active
YWHAQ,SID329577458,-1.28,active
CTU2,SID329584172,-1.88,active
BEND5,SID329580937,-0.738,inactive
FAM3C,SID329577162,0.0532,inactive
TBC1D10B,SID329578262,-0.872,inactive
ZNF169,SID329583307,0.0164,inactive
DNAAF2,SID329579612,-0.484,inactive
PRELID2,SID329583095,2.05,active
GTF2A2,SID329573887,1.6,active
ENTPD1,SID329573078,-1.39,active
TMEM67,SID329581989,-1.51,active
DRP2,SID329573450,-2.69,active
KMT5B,SID329578914,-1.35,active
CEP170,SID329576841,0.0944,inactive
ATP6V1E2,SID329581950,0.0154,inactive
RGS10,SID329575124,-2.31,active
GSTM5,SID329573883,-0.756,inactive
SPATA33,SID329582480,-0.564,inactive
KIF4A,SID329578140,-1.08,active
GPRIN3,SID329583937,-2.15,active
POLR2K,SID329574905,0.863,inactive
NSMCE1,SID329583376,-1.24,active
C19orf53,SID329578618,-0.999,inactive
TCIM,SID329580072,-0.698,inactive
CPNE1,SID329576344,-0.21,inactive
ATP5IF1,SID329582125,-0.959,inactive
IGLL1,SID329574125,-1.14,active
PNLIPRP2,SID329574887,0.638,inactive
CSF2RA,SID329573280,-1.16,active
HMGB1,SID329573980,0.542,inactive
KAT5,SID329577214,-0.92,inactive
BLTP2,SID329576740,-0.583,inactive
ARX,SID329583312,-0.951,inactive
